Measured values from several laboratories, pooled; numbers as filed in NIAID ChemDB.

Shared fields: tests on isolated targets; organism: Pneumocystis carinii; target: Dihydrofolate reductase; read-out: IC50

ICn: concentration for n% inhibition. Rows are shuffled and stem from different studies.

SMILES | result
Nc1nc(N)c2c(n1)-c1ccsc1CC2 | >352 µM
COc1ccc2c(c1)-c1cc3c(N)nc(N)nc3nc1CC2 | 0.22 µM
Nc1nc(N)c2cc(COC(=O)c3cc4ccccc4c4ccccc34)ccc2n1 | 0.49 µM
CC(Cc1c[nH]c2nc(N)nc(N)c12)c1ccc(-c2ccccc2)cc1 | 1.99 µM
CC1(C)C2Cc3c(N)nc(N)nc3C1C2 | 77 µM
COc1cc(CCc2c[nH]c3nc(N)nc(N)c23)cc(OC)c1OC | 0.77 µM
COc1ccc2ccc3cc4c(N)nc(N)nc4nc3c2c1 | >1.85 µM
Nc1nc(N)c2cc(COC(=O)C(c3ccccc3)c3ccccc3)ccc2n1 | 5.8 µM
Nc1nc(N)c2cc3ccc4ccccc4c3nc2n1 | >0.4 µM
Nc1nc(N)c2cc(COC(=O)c3ccc4ccccc4c3)ccc2n1 | 0.85 µM
CC(Cc1c[nH]c2nc(N)nc(N)c12)c1ccc2c(c1)Cc1ccccc1-2 | 2.09 µM
Nc1nc(N)c2cc(COC(=O)c3ccc(-c4ccccc4)cc3)ccc2n1 | 11 µM
Nc1nc(N)c2c(n1)C1CCC(C2)C1 | 6.1 µM
Nc1nc(N)c2cc3c(nc2n1)CCc1ccccc1-3 | 0.65 µM
Nc1nc(N)c2cc(COC(=O)c3ccsc3)ccc2n1 | 4.3 µM

The last 2 rows once more:

SMILES	result
Nc1nc(N)c2cc3c(nc2n1)CCc1ccccc1-3	0.65 µM
Nc1nc(N)c2cc(COC(=O)c3ccsc3)ccc2n1	4.3 µM